A mixed list of measured activities; the numbers were collected in NIAID ChemDB.

All rows: whole-cell or culture tests; species: Hepatitis C virus; measure: EC50

Two numbers with a dash give a range or band. An empty or dashed field is not shown. ECn is the concentration giving n% inhibition of infection, replication or growth. Lines come from different laboratories, so protocols vary.

| smiles | read by | strain | cells | changes | value |
|---|---|---|---|---|---|
| CC1(C)CC(=O)C2=C(C1)Nc1c(O)cccc1N(C(=O)NCC(N)=O)C2c1ccc(OCc2ccccc2)cc1Cl | luciferase / reporter gene / replicon | 1b | - | - | >100 µM |
| CCCCNC(=S)Nc1cccc(OCCCCCc2ccccc2)c1 | reporter gene / fluorescence | - | Ava5-EG(delta4AB)SEAP | - | 0.001–1 µM |
| COc1c(-c2ccc3cc(NS(C)(=O)=O)ccc3c2)cc(-n2ccc(=O)[nH]c2=O)cc1C(C)(C)C | luciferase | genotype 1b Con1 | Huh7 | M414T | 0.028 µM |
| CC1(C)CC(=O)C2=C(C1)Nc1c(O)cccc1N(C(=O)CCC(=O)Nc1ccc(-n3cccc3)cc1)[C@H]2c1ccc(OCc2ccccc2)cc1Cl | luciferase / reporter gene / replicon | 1b | - | - | 24.59 µM |
| CCCCCCCCOc1ccc(N(C(N)=O)c2nc(-c3cccnc3)c(F)s2)cc1C(F)(F)F | - | - | - | - | <1 µM |
| NC(=S)Nc1cccc(OCCCCCCOc2ccccc2)c1 | reporter gene / fluorescence | - | Ava5-EG(delta4AB)SEAP | - | 0.001–1 µM |
| COC(=O)N[C@H](C(=O)N1CCCC1c1ncc(-c2ccc(-c3ccc(-c4cnc([C@@H]5CC(C)CN5C(=O)[C@@H](NC(=O)CO)C(C)C)[nH]4)cc3)cc2)[nH]1)C(C)C | luciferase | 1b | ET | L31V | 0.00002 µM |
| CC1(C)CC(=O)C2=C(C1)Nc1c(O)cccc1N(C(=O)c1cncs1)C2c1ccc(OCc2ccccc2)cc1F | luciferase / reporter gene / replicon | 1b | - | - | 4.31 µM |
| CCCCCCCCOc1ccc(N(C(N)=O)c2nc(-c3cccnc3)cs2)cc1 | - | - | - | - | <1 µM |
| CNC(=S)Nc1cccc(OCCCCCc2ccccc2)c1 | reporter gene / fluorescence | - | Ava5-EG(delta4AB)SEAP | - | 0.001–1 µM |
| CCCCCCCCCc1ccc(N(C(=O)OCC[N+](C)(C)C)c2nc(-c3cccnc3)c(F)s2)cc1C(F)(F)F | - | - | - | - | <1 µM |
| CC1(C)CC(=O)C2=C(C1)Nc1c(O)cccc1N(C(=O)c1ccc(C(N)=O)cc1)C2c1ccc(OCc2ccccc2)cc1Cl | luciferase / reporter gene / replicon | 1b | - | - | 8.54 µM |
| NC(=S)Nc1cccc(OCCCCCOc2ccncn2)c1 | reporter gene / fluorescence | - | Ava5-EG(delta4AB)SEAP | - | 0.001–1 µM |
| CC1(C)CC(=O)C2=C(C1)Nc1c(O)cccc1N(C(=O)CC(N)=O)C2c1ccc(Cl)cc1Cl | luciferase / reporter gene / replicon | 1b | - | - | 9.65 µM |
| O=C(N[C@@H](C(=O)N1CCC[C@H]1c1ncc(-c2ccc(-c3ccc(-c4cnc([C@@H]5CCCN5C(=O)[C@H](NC(=O)C5CC5)c5ccccc5)s4)cc3)cc2)s1)c1ccccc1)C1CC1 | luciferase / reporter gene | genotype 1b | Huh7.5 | P58T | 0.000243 µM |
| CCCCCOc1ccc(N(C(N)=O)c2nc(-c3ccc(C(=O)N(C)C)nc3)cs2)cc1C(F)(F)F | - | - | - | - | <1 µM |
| NC(=S)Nc1cccc(OCCCCCOc2cccc3cccnc23)c1 | reporter gene / fluorescence | - | Ava5-EG(delta4AB)SEAP | - | 0.001–1 µM |
| CCCCCOc1ccc(N(C(=O)C(=O)OC)c2nc(-c3ccc4[nH]c(=O)oc4c3)cs2)cc1C(F)(F)F | - | - | - | - | <1 µM |
| CC(C)C(=O)N1c2cccc(O)c2NC2=C(C(=O)CC(C)(C)C2)C1c1ccc(OCc2ccccc2)cc1F | luciferase / reporter gene / replicon | 1b | - | - | 1.39 µM |
| CCCCCOc1ccc(N(C(=O)C(=O)OC)c2nc(C(=O)Nc3cccnc3)cs2)cc1C(F)(F)F | - | - | - | - | <1 µM |
| CC(C)C(=O)N1c2cccc(O)c2NC2=C(C(=O)CC(C)(C)C2)[C@@H]1c1ccc(OCc2ccccc2)cc1F | luciferase / reporter gene / replicon | 1b | - | - | 0.68 µM |
| N#Cc1ccc(OCCCCCOc2cccc(NC(N)=S)c2)cc1 | reporter gene / fluorescence | - | Ava5-EG(delta4AB)SEAP | - | 0.001–1 µM |
| CCCCCCCCOc1ccc(N(C(=O)OCCOCCOCCOCCOC)c2nc(-c3cccnc3)c(F)s2)cc1C(F)(F)F | - | - | - | - | <1 µM |

The last 3 rows once more:

| smiles | read by | strain | cells | changes | value |
|---|---|---|---|---|---|
| CC(C)C(=O)N1c2cccc(O)c2NC2=C(C(=O)CC(C)(C)C2)[C@@H]1c1ccc(OCc2ccccc2)cc1F | luciferase / reporter gene / replicon | 1b | - | - | 0.68 µM |
| N#Cc1ccc(OCCCCCOc2cccc(NC(N)=S)c2)cc1 | reporter gene / fluorescence | - | Ava5-EG(delta4AB)SEAP | - | 0.001–1 µM |
| CCCCCCCCOc1ccc(N(C(=O)OCCOCCOCCOCCOC)c2nc(-c3cccnc3)c(F)s2)cc1C(F)(F)F | - | - | - | - | <1 µM |